The values that follow are results of earlier work, collected in publication PMC2887854.

Chains of the proteins cited; added tags and fusions are not shown. Residues count along the entry.
UniProt P13423, 30-764: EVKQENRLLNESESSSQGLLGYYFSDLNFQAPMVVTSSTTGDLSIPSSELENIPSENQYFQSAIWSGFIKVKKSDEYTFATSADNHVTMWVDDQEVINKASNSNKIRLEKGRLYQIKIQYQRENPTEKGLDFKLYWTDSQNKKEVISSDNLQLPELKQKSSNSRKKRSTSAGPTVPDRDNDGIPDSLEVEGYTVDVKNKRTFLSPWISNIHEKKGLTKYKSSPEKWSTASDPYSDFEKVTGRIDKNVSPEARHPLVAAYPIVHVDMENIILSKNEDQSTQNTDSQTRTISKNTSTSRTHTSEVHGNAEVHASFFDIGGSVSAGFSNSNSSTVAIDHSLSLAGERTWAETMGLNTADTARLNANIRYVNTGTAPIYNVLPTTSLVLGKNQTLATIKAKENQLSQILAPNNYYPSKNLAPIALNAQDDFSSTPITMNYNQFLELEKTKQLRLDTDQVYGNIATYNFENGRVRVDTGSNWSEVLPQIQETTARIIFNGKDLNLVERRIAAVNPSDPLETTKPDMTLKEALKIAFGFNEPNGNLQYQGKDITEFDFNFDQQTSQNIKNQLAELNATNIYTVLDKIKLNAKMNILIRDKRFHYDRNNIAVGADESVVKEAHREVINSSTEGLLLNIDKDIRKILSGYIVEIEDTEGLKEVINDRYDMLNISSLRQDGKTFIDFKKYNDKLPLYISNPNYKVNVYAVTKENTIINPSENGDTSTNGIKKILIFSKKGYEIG
UniProt Q9H6X2, 33-321: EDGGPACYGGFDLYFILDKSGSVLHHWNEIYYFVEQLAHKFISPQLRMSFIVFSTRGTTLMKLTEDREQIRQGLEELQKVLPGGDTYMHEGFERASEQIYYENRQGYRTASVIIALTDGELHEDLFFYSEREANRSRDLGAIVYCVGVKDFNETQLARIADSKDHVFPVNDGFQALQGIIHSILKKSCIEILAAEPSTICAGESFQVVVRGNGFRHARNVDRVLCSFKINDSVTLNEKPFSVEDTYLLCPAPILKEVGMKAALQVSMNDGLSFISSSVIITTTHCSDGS
UniProt Q9H6X2, 44-215: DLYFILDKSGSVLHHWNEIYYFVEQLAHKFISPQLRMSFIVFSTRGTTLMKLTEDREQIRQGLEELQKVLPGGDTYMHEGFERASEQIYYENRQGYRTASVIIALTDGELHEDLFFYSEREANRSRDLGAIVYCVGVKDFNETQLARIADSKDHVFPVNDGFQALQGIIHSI

For data set [1], the target named is PA (Bacillus anthracis) (UniProt P13423). Particulars: cited from earlier work.
For data set [2] the target is unchanged. Particulars: cited from earlier work. The source holds these as a separate data set.

Several values for one entry are separate records, joined by “and”; a condition that tells them apart may be missing. Equal entries are not always repeated. Where two headings read alike, the source gives them in different places.

As a reminder, the Kd is the free concentration of one partner at which half of the binding sites on the other are occupied at equilibrium, for simple one-to-one binding. Take TEM8 (from UniProt Q9H6X2): in the data set with PA (Bacillus anthracis) [1], the dissociation constant Kd was 130 nM and 1100 nM.
Take TEM8 vWA domain (from UniProt Q9H6X2): in the data set with PA (Bacillus anthracis) [2], the Kd is 1100 nM and 130 nM.
